# According to ChEMBL document CHEMBL5034007, “Discovery of Methylene Thioacetal-Incorporated α-RgIA Analogues as Potent and Stable Antagonists of the Human α9α10 Nicotinic Acetylcholine Receptor for the Treatment of Neuropathic Pain” (2021):
# The chains behind the UniProt entries cited, without tags or fusion partners. Residues count along the entry.
# UniProt Q9UGM1, 23-479 limits assumed: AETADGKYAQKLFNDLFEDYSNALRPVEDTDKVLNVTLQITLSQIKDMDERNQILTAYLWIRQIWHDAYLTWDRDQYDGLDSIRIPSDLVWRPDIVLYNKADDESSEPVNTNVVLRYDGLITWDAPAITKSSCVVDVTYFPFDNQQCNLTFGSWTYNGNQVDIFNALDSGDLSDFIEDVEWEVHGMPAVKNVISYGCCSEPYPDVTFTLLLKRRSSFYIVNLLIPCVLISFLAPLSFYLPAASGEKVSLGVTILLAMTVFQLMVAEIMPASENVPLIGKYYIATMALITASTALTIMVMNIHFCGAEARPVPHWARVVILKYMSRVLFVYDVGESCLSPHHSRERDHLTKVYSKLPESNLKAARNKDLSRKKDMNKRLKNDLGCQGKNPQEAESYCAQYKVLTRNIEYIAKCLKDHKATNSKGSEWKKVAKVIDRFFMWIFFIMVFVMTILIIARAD
# UniProt Q9GZZ6, 25-450 limits assumed: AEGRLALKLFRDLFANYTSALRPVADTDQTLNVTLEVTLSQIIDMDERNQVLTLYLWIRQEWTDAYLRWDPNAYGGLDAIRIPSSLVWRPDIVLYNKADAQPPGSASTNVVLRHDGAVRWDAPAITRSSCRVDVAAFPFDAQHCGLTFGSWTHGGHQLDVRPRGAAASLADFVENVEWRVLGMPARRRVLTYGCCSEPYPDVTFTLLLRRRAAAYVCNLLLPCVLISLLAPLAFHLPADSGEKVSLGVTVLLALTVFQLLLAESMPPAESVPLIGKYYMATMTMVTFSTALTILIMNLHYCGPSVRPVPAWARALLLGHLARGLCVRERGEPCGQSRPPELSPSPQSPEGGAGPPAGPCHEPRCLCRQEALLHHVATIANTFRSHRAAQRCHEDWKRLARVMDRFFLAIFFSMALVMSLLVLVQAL
# UniProt P30926, 22-498 limits assumed: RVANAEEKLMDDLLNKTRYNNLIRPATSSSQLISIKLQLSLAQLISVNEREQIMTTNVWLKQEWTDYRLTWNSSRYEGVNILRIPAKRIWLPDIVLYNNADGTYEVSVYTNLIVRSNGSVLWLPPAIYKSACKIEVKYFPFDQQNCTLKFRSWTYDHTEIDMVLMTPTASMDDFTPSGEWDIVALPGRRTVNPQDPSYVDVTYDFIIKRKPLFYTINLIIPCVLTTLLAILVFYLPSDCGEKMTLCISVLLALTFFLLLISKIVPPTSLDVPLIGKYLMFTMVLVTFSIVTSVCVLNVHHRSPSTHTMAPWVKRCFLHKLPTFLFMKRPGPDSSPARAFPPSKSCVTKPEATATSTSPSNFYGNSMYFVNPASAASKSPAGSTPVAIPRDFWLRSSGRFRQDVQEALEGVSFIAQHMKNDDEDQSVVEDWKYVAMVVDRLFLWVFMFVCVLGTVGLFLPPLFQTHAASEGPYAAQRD
# UniProt P32297, 32-505 limits assumed: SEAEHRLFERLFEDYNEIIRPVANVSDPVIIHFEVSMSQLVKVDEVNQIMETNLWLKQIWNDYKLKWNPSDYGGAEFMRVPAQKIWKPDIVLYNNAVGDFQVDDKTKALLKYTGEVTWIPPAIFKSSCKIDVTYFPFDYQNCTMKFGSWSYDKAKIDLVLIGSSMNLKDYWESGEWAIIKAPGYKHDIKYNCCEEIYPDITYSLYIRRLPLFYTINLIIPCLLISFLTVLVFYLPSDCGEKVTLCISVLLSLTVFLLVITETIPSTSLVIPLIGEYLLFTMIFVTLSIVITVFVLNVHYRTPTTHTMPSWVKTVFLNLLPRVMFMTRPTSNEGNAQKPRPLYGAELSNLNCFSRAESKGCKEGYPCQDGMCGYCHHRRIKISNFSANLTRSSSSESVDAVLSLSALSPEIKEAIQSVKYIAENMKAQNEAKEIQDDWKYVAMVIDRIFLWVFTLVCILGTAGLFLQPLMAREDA
# UniProt Q15825, 26-494 limits assumed: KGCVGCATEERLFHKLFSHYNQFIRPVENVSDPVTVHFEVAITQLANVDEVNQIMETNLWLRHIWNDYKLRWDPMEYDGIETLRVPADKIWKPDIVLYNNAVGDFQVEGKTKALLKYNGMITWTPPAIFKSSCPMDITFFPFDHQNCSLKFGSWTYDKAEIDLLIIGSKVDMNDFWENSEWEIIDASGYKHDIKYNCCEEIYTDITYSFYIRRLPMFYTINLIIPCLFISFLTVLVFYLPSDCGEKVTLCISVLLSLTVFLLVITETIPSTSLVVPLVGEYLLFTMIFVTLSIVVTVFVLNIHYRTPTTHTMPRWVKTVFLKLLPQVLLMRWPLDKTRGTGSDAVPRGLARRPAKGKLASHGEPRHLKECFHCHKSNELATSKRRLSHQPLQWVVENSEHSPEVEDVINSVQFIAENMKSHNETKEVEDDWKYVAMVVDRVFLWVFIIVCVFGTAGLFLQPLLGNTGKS
# UniProt P17787, 26-502 limits assumed: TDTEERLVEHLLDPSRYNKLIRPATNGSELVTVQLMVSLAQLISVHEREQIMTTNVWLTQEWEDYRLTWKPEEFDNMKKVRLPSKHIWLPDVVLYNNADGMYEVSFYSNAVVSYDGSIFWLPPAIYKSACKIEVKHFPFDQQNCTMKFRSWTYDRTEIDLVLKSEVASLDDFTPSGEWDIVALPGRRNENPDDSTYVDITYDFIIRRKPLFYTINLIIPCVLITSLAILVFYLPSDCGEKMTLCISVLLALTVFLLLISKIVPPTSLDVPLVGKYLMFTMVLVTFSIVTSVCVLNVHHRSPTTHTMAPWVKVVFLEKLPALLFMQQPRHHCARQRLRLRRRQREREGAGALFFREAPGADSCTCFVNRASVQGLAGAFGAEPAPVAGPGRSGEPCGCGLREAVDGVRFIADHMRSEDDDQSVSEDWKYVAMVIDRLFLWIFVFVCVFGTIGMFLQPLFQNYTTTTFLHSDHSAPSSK
# UniProt Q15822, 27-529 limits assumed: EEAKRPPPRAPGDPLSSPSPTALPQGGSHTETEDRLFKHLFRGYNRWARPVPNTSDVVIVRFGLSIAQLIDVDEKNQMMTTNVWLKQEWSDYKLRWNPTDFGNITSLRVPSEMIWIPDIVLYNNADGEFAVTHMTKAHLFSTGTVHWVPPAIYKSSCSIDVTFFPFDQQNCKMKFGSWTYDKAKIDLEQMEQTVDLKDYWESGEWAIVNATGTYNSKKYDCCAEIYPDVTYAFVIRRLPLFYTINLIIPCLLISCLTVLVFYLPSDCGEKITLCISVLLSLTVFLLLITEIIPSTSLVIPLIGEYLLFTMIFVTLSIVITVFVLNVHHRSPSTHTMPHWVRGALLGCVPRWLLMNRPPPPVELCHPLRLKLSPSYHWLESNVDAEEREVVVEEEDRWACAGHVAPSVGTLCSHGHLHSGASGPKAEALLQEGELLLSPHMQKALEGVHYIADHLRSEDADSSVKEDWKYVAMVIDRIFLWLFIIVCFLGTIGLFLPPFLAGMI
# UniProt P43681, 27-627 limits assumed: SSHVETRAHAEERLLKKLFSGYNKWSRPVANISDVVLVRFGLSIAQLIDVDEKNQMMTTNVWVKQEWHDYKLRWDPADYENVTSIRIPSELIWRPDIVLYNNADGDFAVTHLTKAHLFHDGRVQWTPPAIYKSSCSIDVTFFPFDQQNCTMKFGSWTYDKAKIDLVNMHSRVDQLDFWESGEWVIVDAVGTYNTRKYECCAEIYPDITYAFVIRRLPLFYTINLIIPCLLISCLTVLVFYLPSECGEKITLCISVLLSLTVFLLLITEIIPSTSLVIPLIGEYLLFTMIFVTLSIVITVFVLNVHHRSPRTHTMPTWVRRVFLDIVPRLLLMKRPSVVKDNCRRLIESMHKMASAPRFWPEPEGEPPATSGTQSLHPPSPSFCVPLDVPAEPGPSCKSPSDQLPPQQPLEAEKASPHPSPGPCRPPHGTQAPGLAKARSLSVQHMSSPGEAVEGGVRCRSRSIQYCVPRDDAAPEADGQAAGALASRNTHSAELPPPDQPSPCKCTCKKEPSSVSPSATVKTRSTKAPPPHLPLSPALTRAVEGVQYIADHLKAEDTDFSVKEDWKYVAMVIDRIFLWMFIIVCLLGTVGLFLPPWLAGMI
# UniProt P21397, whole entry, looked up: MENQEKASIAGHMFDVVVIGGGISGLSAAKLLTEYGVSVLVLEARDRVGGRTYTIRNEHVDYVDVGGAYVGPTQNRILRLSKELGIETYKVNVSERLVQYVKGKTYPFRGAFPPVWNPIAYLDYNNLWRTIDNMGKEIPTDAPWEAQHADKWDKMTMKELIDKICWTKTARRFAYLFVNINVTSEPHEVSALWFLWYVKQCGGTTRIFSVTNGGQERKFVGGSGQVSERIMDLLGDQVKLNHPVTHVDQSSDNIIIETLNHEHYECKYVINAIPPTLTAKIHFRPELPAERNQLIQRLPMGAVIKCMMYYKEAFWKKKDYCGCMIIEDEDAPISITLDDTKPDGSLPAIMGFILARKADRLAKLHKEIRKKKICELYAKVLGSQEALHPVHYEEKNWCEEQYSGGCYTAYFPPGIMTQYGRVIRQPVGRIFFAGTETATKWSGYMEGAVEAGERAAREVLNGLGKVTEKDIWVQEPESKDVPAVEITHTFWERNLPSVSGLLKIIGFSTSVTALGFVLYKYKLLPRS
# UniProt P27338, 2-520 limits assumed: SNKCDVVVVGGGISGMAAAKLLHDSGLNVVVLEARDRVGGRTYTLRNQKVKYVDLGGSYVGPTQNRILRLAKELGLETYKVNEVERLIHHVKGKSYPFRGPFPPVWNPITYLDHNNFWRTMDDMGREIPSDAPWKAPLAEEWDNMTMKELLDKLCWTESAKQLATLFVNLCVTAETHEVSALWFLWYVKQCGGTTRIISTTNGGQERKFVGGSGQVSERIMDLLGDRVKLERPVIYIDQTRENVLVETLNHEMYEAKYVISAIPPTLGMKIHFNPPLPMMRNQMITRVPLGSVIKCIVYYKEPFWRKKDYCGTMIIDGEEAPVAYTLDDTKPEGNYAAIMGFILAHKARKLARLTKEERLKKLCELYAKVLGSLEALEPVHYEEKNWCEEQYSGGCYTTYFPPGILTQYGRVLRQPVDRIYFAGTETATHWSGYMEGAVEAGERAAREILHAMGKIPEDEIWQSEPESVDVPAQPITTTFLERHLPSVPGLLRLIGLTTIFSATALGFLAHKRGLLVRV
# What was measured:
# [1] = Stability of the compound in PBS at pH 7.4 in presence of reduced glutathione measured after 8 hrs; settings: buffer, pH 7.4, 8 h
# [2] = target: Neuronal acetylcholine receptor; alpha9/alpha10 (Homo sapiens, UniProt Q9UGM1+Q9GZZ6); settings: oocyte
# [3] = target: Nicotinic acetylcholine receptor alpha6/alpha3/beta4 (Homo sapiens, UniProt P30926+P32297+Q15825); settings: oocyte
# [4] = target: Neuronal acetylcholine receptor; alpha3/beta2 (Homo sapiens, UniProt P17787+P32297); settings: oocyte
# [5] = target: Neuronal acetylcholine receptor; alpha3/beta4 (Homo sapiens, UniProt P30926+P32297); settings: oocyte
# [6] = target: Neuronal acetylcholine receptor; alpha2/beta2 (Homo sapiens, UniProt P17787+Q15822); settings: oocyte
# [7] = target: Neuronal acetylcholine receptor; alpha4/beta2 (Homo sapiens, UniProt P17787+P43681); settings: oocyte
# [8] = target: Neuronal acetylcholine receptor; alpha2/beta4 (Homo sapiens, UniProt P30926+Q15822); settings: oocyte
# [9] = target: Amine oxidase [flavin-containing] A (Homo sapiens, UniProt P21397); assay: Inhibition of MAO-A (unknown origin)
# [10] = target: Amine oxidase [flavin-containing] B (Homo sapiens, UniProt P27338); assay: Inhibition of MAO-B (unknown origin)
# [11] = Stability of the compound in human serum assessed as parent compound remaining measured after 24 hrs by RP-HPLC analysis
smiles,measurement,setting,value
C[C@@H](O)[C@@H]1NC(=O)[C@@H]2CSSC[C@H](NC(=O)[C@H](CCCNC(=N)N)NC(=O)[C@@H]3CCCN3C(=O)[C@H](CC(=O)O)NC1=O)C(=O)N[C@@H](CCCNC(N)=O)C(=O)N[C@@H](Cc1ccc(O)c(I)c1)C(=O)N[C@@H](CCC(N)=O)C(=O)N[C@H](C(=O)N[C@@H](Cc1ccc(O)cc1)C(=O)O)CSSC[C@H](NC(=O)CN)C(=O)N2,Stability,[1],< 50%
same,IC50,[2],1.5 nM
C[C@@H](O)[C@@H]1NC(=O)[C@@H]2CSSC[C@@H](C(=O)N[C@@H](Cc3ccc(O)cc3)C(=O)O)NC(=O)[C@H](CCC(N)=O)NC(=O)[C@H](Cc3ccc(O)c(I)c3)NC(=O)[C@H](CCCNC(=N)N)NC(=O)[C@H](CSSC[C@H](NC(=O)CN)C(=O)N2)NC(=O)[C@H](CCCNC(=N)N)NC(=O)[C@@H]2CCCN2C(=O)[C@H](CC(=O)O)NC1=O,IC50,[2],0.5 nM
C[C@@H](O)[C@@H]1NC(=O)[C@@H]2CSSC[C@@H](C(=O)N[C@@H](Cc3ccc(O)cc3)C(=O)O)NC(=O)[C@H](CCC(N)=O)NC(=O)[C@H](Cc3ccc(O)c(I)c3)NC(=O)[C@H](CCCNC(N)=O)NC(=O)[C@H](CSCS[C@@H](NC(=O)CN)C(=O)N2)NC(=O)[C@H](CCCNC(=N)N)NC(=O)[C@@H]2CCCN2C(=O)[C@H](CC(=O)O)NC1=O,IC50,[2],882 nM
C[C@@H](O)[C@@H]1NC(=O)[C@@H]2NC(=O)[C@H](NC(=O)CN)CSSC[C@H](NC(=O)[C@H](CCCNC(=N)N)NC(=O)[C@@H]3CCCN3C(=O)[C@H](CC(=O)O)NC1=O)C(=O)N[C@@H](CCCNC(N)=O)C(=O)N[C@@H](Cc1ccc(O)c(I)c1)C(=O)N[C@@H](CCC(N)=O)C(=O)N[C@H](C(=O)N[C@@H](Cc1ccc(O)cc1)C(=O)O)CSCS2,IC50,[3],> 10 µM
same,IC50,[4],> 10 µM
same,IC50,[5],> 10 µM
same,IC50,[6],> 10 µM
same,IC50,[2],6.1 nM
same,IC50,[7],> 10 µM
same,IC50,[8],> 10 µM
C[C@H](O)[C@H]1NC(=O)[C@@H]2NC(=O)[C@@H](NC(=O)CN)CSSC[C@H](NC(=O)[C@H](CCCNC(=N)N)NC(=O)[C@@H]3CCCN3C(=O)[C@H](CC(O)O)NC1=O)C(=O)N[C@@H](CCCNC(=N)N)C(=O)N[C@@H](Cc1ccc(O)c(I)c1)C(=O)N[C@@H](CCC(N)=O)C(=O)N[C@H](C(=O)NCCC(=O)N[C@@H](CCCNC(=N)N)C(=O)O)CSCS2,IC50,[2],2.9 nM
C[C@H](O)[C@H]1NC(=O)[C@@H]2NC(=O)[C@@H](NC(=O)CN)CSSC[C@H](NC(=O)[C@H](CCCNC(=N)N)NC(=O)[C@@H]3CCCN3C(=O)[C@H](CC(O)O)NC1=O)C(=O)N[C@@H](CCCNC(=N)N)C(=O)N[C@@H](Cc1ccc(O)c(I)c1)C(=O)N[C@@H](CCC(N)=O)C(=O)N[C@H](C(=O)N[C@H](CC(=O)N[C@@H](CCCNC(=N)N)C(=O)O)Cc1ccc(O)cc1)CSCS2,inhibition (INH),[9],-2.1%
same,inhibition (INH),[10],19.9%
same,Stability,[11],25%
